{"source": "paper PMC11203576", "key": {"[1]": {"target": "SARS-CoV-2 spike protein RBD, Alpha variant, sfGFP fusion (SARS-CoV-2) (UniProt P0DTC2)", "test": "SPR; […] (12.5, 25, 50 or 100 mM) for 30 min at room temperature"}, "[2]": {"target": "SARS-CoV-2 spike protein RBD, original (wild-type), sfGFP fusion (SARS-CoV-2) (UniProt P0DTC2)", "test": "SPR; […] (12.5, 25, 50 or 100 mM) for 30 min at room temperature"}}, "data": [{"substance": "Jacalin (natural protein)", "values": [{"measurement": "percent inhibition of binding by 12.5 mM galactose", "setting": "[1]", "value": 90, "unit": "%"}, {"measurement": "percent inhibition of binding by 12.5 mM galactose", "setting": "[2]", "value": 60, "unit": "%"}]}]}
